Anti-infective test results gathered from many reports (values: NIAID ChemDB through PubChem).

All rows: growth or infection tests; agent: Mycobacterium avium; read-out: MIC

An empty or dashed field is not shown. Two numbers with a dash give a range or band. Lines come from different laboratories, so protocols vary.

smiles | strain | read by | setting | result
CCCSc1nnnn1-c1c(C)cc(C)cc1C | 80/72 | - | - | 1000 µM
Cc1ccc2oc(=S)n(-c3ccc(Br)cc3)c(=S)c2c1 | MY330/88 | - | 14 d | 4 µM
Clc1ccc(/C(Cn2ccnc2)=N/OCc2ccc(-c3ccccc3)cc2)cc1 | CIP103317 | - | - | 8 µg/mL
Cc1cccc(C(N)=Nc2nc(-c3ccccn3)cc3ccccc23)c1 | 101 | - | - | 1 µg/mL
CS(C)=O | 101 | resazurin | - | >1 µg/mL
Cc1ccc(O)c(C(=O)NCc2cccc([N+](=O)[O-])c2)c1 | MY330/88 | - | - | 32 µg/mL
CCc1cc(C(N)=S)ccn1 | 3337-4 | - | - | 5 µg/mL
O=c1oc2ccccc2c(=O)n1-c1ccccc1 | CNCTC MY330/88 | - | - | 62 µM
O=C(NCc1ccccc1)c1ccccc1O | ATCC 25291 | - | 14 d | 125 µM
C(/C=C/c1ccccc1)=Nc1ccc(Cn2ccnc2)cc1 | 103317 | - | - | 55.7 µM
CC[C@H]1OC(=O)[C@H](C)C(=O)[C@H](C)[C@@H](O[C@@H]2O[C@H](C)C[C@H](N(C)C)[C@H]2O)[C@](C)(OC)C[C@@H](C)C(=O)[C@H](C)[C@H]2N(CCCCn3cnc(-c4cccnc4)c3)C(=O)O[C@]12C | Isolate 1257 | - | - | 10 µg/mL
COc1ccc(O)c(C(=S)NCc2cccc(Cl)c2)c1 | MY330/88 | - | - | 1 µg/mL
O/N=C(/Cn1ccnc1)c1ccc(F)cc1 | 103317 | - | - | 72.9 µM
Cc1nc2scc(-c3ccco3)c2c(=O)n1N | CNCTC MY330/88 | - | - | 510 µM
CCCCc1ccc(NC(=S)Nc2ccc(O)cc2)cc1 | 724 | - | - | 10 µg/mL
COc1ccc(CNC(=S)c2ccccc2O)cc1 | MY330/88 | - | - | 0.98 µg/mL
CCCOc1cccc(NC(=O)OCCN2CCCCCC2)c1 | MY330/88 | - | - | 250 µM
O=C(Nc1cccc(F)c1)c1cc(F)ccc1O | CNCTC MY330/88 | - | - | 31 µM
Cc1nc2scc(-c3ccco3)c2c(=O)n1/N=C/c1ccco1 | CNCTC MY330/88 | - | - | 54 µM
CCOc1c(N2CCC(C(C)(C)N)C2)c(F)cc2c(=O)c(C(=O)O)cn(C3CC3)c12 | SMD | - | - | 1 µg/mL
CCCCCCSc1ncnc2ccccc12 | CNCTC MY80/72 | - | - | 125 µM
CO[C@H]1/C=C/O[C@@]2(C)Oc3c(C)c(O)c4c(O)c(cc(O)c4c3C2=O)NC(=O)/C(C)=C\C=C\[C@H](C)[C@H](O)[C@@H](C)[C@@H](O)[C@@H](C)[C@H](OC(C)=O)[C@@H]1C | Forlanini | - | - | 1 µg/mL
CCOc1ccc(NC(=O)OCCC[NH+]2CCCCC2)cc1 | MY330/88 | - | - | 500 µM
CCCSc1nnnn1-c1cccc(C)c1 | 80/72 | - | - | 500 µM
CC(=O)NC[C@H]1CN(c2ccc(N3CCN(c4ccc([N+](=O)[O-])s4)CC3)c(F)c2)C(=O)O1 | ATCC 25291 | - | - | 0.25 µg/mL
CCOc1cccc(NC(=O)OCCC[NH+]2CCCCC2)c1 | MY330/88 | - | - | 500 µM
O/N=C(\Cn1ccnc1)c1ccc(Cl)cc1 | 103317 | - | - | 33.9 µM
N/C(=N\NC(CC(=O)c1cccc(Cl)c1)c1ccncc1)c1ccccn1 | 485 | - | - | 8 µg/mL
CCCCCOc1ccc(NC(=O)OCCC[NH+]2CCCCC2)cc1 | MY330/88 | - | - | 62.5 µM
Clc1ccc(/C(Cn2ccnc2)=N/OCc2cccc3ccccc23)cc1 | CIP103317 | - | - | >16 µg/mL
N/C(=N\NC(CC(=O)c1ccccc1)c1cccnc1)c1ccccn1 | 485 | - | - | 8 µg/mL
Cc1ccc(C(=O)Nn2c(C)nc3scc(-c4ccco4)c3c2=O)cc1 | CNCTC MY330/88 | - | - | 101 µM
Cc1ccn2c(C(=O)NCc3ccc4c(c3)CCO4)c(C)nc2c1 | 2151 | resazurin | - | 2–10 µM
CCCOc1ccccc1NC(=O)OCCN1CCCCC1 | MY330/88 | - | - | 1000 µM
Cc1ccc(C(=O)CC(N/N=C(\N)c2ccccn2)c2ccncc2)cc1 | 485 | - | - | 16 µg/mL
O=C(NCc1ccccc1)c1cc(Cl)cc(Cl)c1O | ATCC 25291 | - | 14 d | 125 µM
O=c1oc2ccc(Br)cc2c(=O)n1-c1ccc(F)cc1 | CNCTC MY330/88 | - | - | 31 µM
N/C(=N\NC(CC(=O)c1ccc(Cl)cc1)c1ccncc1)c1ccccn1 | 485 | - | - | 8 µg/mL
CCCCOc1cccc(NC(=O)OCCN2CCOCC2)c1 | MY330/88 | - | - | 250 µM
CCCCCCCCCCCCOc1ccccc1NC(=O)OCCC[NH+]1CCCCC1 | MY330/88 | - | - | 8 µM
Cc1ccc(O)c(C(=O)NCc2ccccc2)c1 | MY330/88 | - | - | 62.5 µg/mL
O=c1oc2ccccc2c(=O)n1-c1ccc(Cl)c(Cl)c1 | CNCTC MY330/88 | - | - | 8 µM
c1ccc(-c2ccc(CNc3ccccc3N3CCOCC3)cc2)cc1 | 103317 | - | - | 89.4 µM
CCCSc1ccc(NC(=S)Nc2ccc(OCCC(C)C)cc2)cc1 | 724 | - | - | 20 µg/mL
O=c1oc2ccc(F)cc2c(=O)n1-c1cccc([N+](=O)[O-])c1 | CNCTC MY330/88 | - | - | 16 µM
C=CCSc1ncnc2ccccc12 | CNCTC MY80/72 | - | - | >1000 µM
O=c1oc2ccccc2c(=O)n1-c1cccc(Cl)c1 | CNCTC MY330/88 | - | - | 31 µM
O=C(Nc1ccc(Cl)cc1Cl)c1cc(Br)ccc1O | CNCTC MY330/88 | - | - | 8 µM
Cc1nc2scc(-c3ccco3)c2c(=O)n1/N=C/c1ccc(F)cc1 | CNCTC MY330/88 | - | - | 10 µM
Fc1ccc(/C(Cn2ccnc2)=N/OCc2ccccc2)cc1 | CIP103317 | - | - | 4 µg/mL
Fc1cccc(-n2c(=S)oc3ccc(Cl)cc3c2=S)c1 | MY330/88 | - | 14 d | 62.5 µM
CCCCSc1ccc(NC(=S)Nc2ccc(SCCCC)cc2)cc1 | 724 | - | - | 5 µg/mL
N/C(=N\NC(CC(=O)c1ccc(Cl)c(Cl)c1)c1ccccn1)c1ccccn1 | 485 | - | - | 8 µg/mL
Cc1ccn2c(C(=O)NCc3ccc(Oc4cccc(C(F)(F)F)c4)cc3)c(C)nc2c1 | 101 | resazurin | - | <2 µM
CCCCOc1cccc(NC(=O)OCCC[NH+]2CCCCC2)c1 | MY330/88 | - | - | 125 µM
Clc1ccc(/C(Cn2ccnc2)=N/OCc2ccccc2)cc1 | CIP103317 | - | - | 8 µg/mL
CCCCSc1nnnn1-c1c(C)cc(C)cc1C | 80/72 | - | - | >1000 µM
COc1ccc2oc(=O)n(-c3ccc(F)cc3)c(=S)c2c1 | MY330/88 | - | 21 d | 62.5 µM
Clc1ccc2c(c1)nc1cc(Nc3ccccc3)c(=NC3CCCCC3)cc-1n2-c1ccccc1 | 19894 | - | - | 1 µg/mL
Cc1c(F)c(N2CCNC(C)C2)cc2c1c(=O)c(C(=O)O)cn2C1CC1 | 14-2 | - | - | 0.25 µg/mL
Cc1cn2c(C(=O)NCc3ccc(N4CCSCC4)c(F)c3)c(C)nc2s1 | 101 | resazurin | - | <2 µM
O=C(NCc1ccccn1)c1cc(Cl)ccc1O | ATCC 25291 | - | 14 d | 125 µM
Fc1cccc(-n2c(=S)oc3ccc(Br)cc3c2=S)c1 | MY330/88 | - | 14 d | 16 µM
Cc1nc2scc(-c3ccco3)c2c(=O)n1/N=C/C1CC1 | CNCTC MY330/88 | - | - | 61 µM
O=C(Nc1ccc(Cl)c(Cl)c1)c1cc(F)ccc1O | CNCTC MY330/88 | - | - | 8 µM
O=C(NCc1ccccn1)c1cc(Br)ccc1O | ATCC 25291 | - | 21 d | 250 µM
Oc1cc(Br)cc(Br)c1C(=S)NCc1ccc(C(F)(F)F)cc1 | MY330/88 | - | - | 32 µg/mL
O=C(Nc1ccccc1)c1cc(Cl)ccc1O | CNCTC MY330/88 | - | - | 31 µM
O/N=C(/Cn1ccnc1)c1ccc(Cl)cc1Cl | 103317 | - | - | 118 µM
c1ccc(/C(Cn2ccnc2)=N/OCc2cccc3ccccc23)cc1 | CIP103317 | - | - | >16 µg/mL
C(=C\c1ccccc1)/CNc1ccc(N2CCSCC2)cc1 | 103317 | - | - | 24.7 µM
CC(C)(C)n1cc(C(=O)O)c(=O)c2cc(F)c(N3CCNCC3)nc21 | RG1 | - | - | 1 µg/mL
c1ccc(CCSc2ncnc3ccccc23)cc1 | CNCTC MY80/72 | - | - | 63 µM
O=c1oc2ccc(F)cc2c(=S)n1-c1cccc(Cl)c1 | MY330/88 | - | 14 d | 4 µM
CCn1cc(C(=O)O)c(=O)c2cc(F)c(N3CCN(C)CC3)cc21 | 101 | - | - | 64 µg/mL
CC(C)(C)c1ccc(CNC(=O)c2c(O)cc(Cl)cc2Cl)cc1 | MY330/88 | - | - | 62.5 µg/mL
c1ccc(/C(Cn2ccnc2)=N\OCc2cccc3ccccc23)cc1 | CIP103317 | - | - | 8 µg/mL
Clc1ccc(CNc2cccc(N3CCSCC3)c2)cc1 | 103317 | - | - | 25.7 µM
CCCCCCCOc1cccc(NC(=O)OCCN(C)C)c1 | MY330/88 | - | - | 16 µM
Cc1ccc2c(=O)n(-c3cccc(Cl)c3)c(=O)oc2c1 | CNCTC MY330/88 | - | - | 31 µM
Clc1ccc(/C(Cn2ccnc2)=N\OCc2cccc3ccccc23)c(Cl)c1 | CIP103317 | - | - | >16 µg/mL
N/C(=N\NC(CC(=O)c1ccc(-c2ccccc2)cc1)c1ccccn1)c1ccccn1 | 485 | - | - | 32 µg/mL
O=c1oc2ccc(F)cc2c(=O)n1-c1ccccc1 | CNCTC MY330/88 | - | - | 31 µM
O=c1oc2ccc(Cl)cc2c(=S)n1-c1ccc(F)cc1 | MY330/88 | - | 21 d | 62.5 µM
N/C(=N\NC(CC(=O)c1cccc(Cl)c1)c1cccnc1)c1ccccn1 | 485 | - | - | 32 µg/mL
CCSc1nnnn1-c1ccc(C)cc1 | 80/72 | - | - | 1000 µM
CCCCc1ccc(NC(=S)Nc2ccc(OCCC(C)C)cc2)cc1 | 724 | - | - | 5 µg/mL
CCCCCCCCCCCCCCCCSc1ncnc2ccccc12 | CNCTC MY66/72 | - | - | >1000 µM
Cc1cn2c(C(=O)NCc3ccc(N4CCN(c5ccc(C(F)(F)F)cn5)CC4)c(F)c3)c(C)nc2s1 | A5 | resazurin | - | >1 µg/mL
Clc1ccc(/C(Cn2ccnc2)=N/OCc2ccccc2)c(Cl)c1 | CIP103317 | - | - | 8 µg/mL
O=C(NCc1ccccc1)c1ccc(Cl)cc1O | ATCC 25291 | - | 14 d | 62 µM
Cc1cc(C)c(-n2nnnc2SC(C)C)c(C)c1 | 80/72 | - | - | 1000 µM

For reference, 5 entries again:

CCCOc1cccc(NC(=O)OCCN2CCCCCC2)c1 ; strain: MY330/88 ; result: 250 µM
Cc1cccc(C(N)=Nc2nc(-c3ccccn3)cc3ccccc23)c1 ; strain: 101 ; result: 1 µg/mL
O=c1oc2ccccc2c(=O)n1-c1ccc(Cl)c(Cl)c1 ; strain: CNCTC MY330/88 ; result: 8 µM
Cc1ccc(C(=O)CC(N/N=C(\N)c2ccccn2)c2ccncc2)cc1 ; strain: 485 ; result: 16 µg/mL
CCSc1nnnn1-c1ccc(C)cc1 ; strain: 80/72 ; result: 1000 µM